These results are taken from patent US20110166072, “Methods of treating αvβ3 integrin-associated diseases by administering polypeptides selective for αvβ3 integrin” (published 2011).

Assay [1] addresses integrin αvβ3 (on rat osteoclast precursors), rat. Kind of assay: cell-based or functional assay.
Assay [2] concerns the target platelet glycoprotein αIIbβ3 (on human platelets), human, P08514 32-1039; P05106 27-788. In words: cell-based or functional assay.

In turn, Pegylated RD (^48PRLDMP^53-5K) displayed an Osteoclastogenesis IC50 in assay [1] of 3.88 nM. This substance also had a Platelet aggregation IC50 in assay [2] of 398 nM.

Take “ARLDDL (rhodostomin variant ^48ARLDDL^53)”: the Platelet aggregation IC50 in assay [2] was 10400 nM.

RD (rhodostomin variant ^48PRLDMP^53) showed an Osteoclastogenesis IC50 in assay [1] of 3.32 nM. The same substance yielded a Platelet aggregation IC50 in assay [2] of 433 nM.
